The results in this text go back to PubChem BioAssay AID1117319 (Southern Research Institute, 2015).

SMILES strings stand for the structures. Some of the results follow. Results filed as inconclusive are left out. Active and inactive are the calls of the source.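 Rule for the calls: active = inhibition above a set limit at one or more doses, reproduced on every date tested; inconclusive = results disagree between test dates, or hit never tested in dose response; inactive = the rest.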

This assay has as its target Virion infectivity factor (Human immunodeficiency virus type 1 group M subtype B (isolate BH10)) + Virion infectivity factor (Human immunodeficiency virus type 1 group M subtype B (isolate BRU/LAI)) + Virion infectivity factor (Human immunodeficiency virus type 1 group M subtype B (isolate PCV12)) + Virion infectivity factor (Human immunodeficiency virus type 1 group M subtype B (isolate HXB2)) + DNA dC->dU-editing enzyme APOBEC-3G (Homo sapiens) (UniProt P69720+P69721+P69722+P69723+Q9HC16). In words: HIV-1 Vif–A3G interaction blockers – biochemical, TR-FRET, GST-Vif 1-94, biotin-A3G peptide, dose response retest, primary screen (AID 1117319).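 Note: Vif residues 1-94 fused to GST binding biotinylated APOBEC3G peptide 110-148; 0% = full assay without inhibitor and 100% = GST in place of GST-Vif.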 Particulars: TR-FRET GST-Vif / biotin-A3G peptide binding; stronger effect = higher value. A general note: In TR-FRET formats the signal depends on donor and acceptor labels being close together.
As a reminder, the inhibition is the relative decrease from the control value, in per cent. Regarding `CCOC(=O)c1ccc(NP(C)(=O)Oc2ccc(Cl)cc2)cc1` (configuration not stated), the inhibition is inactive: 5.19%. To `CP(=O)(OC12CC3CC(CC(C3)C1)C2)OC12CC3CC(CC(C3)C1)C2` belongs inactive: 2.02%; to `CN(C)C(=O)c1c([N+](=O)[O-])cc([N+](=O)[O-])cc1[N+](=O)[O-]`, inactive: -3.9%.

On to `COc1ccccc1OP(C)(=O)Nc1ccccc1Br` (configuration not stated), for which the inhibition was inactive: -1.96%. In the case of `CC(C)(C)c1ccc(OP(C)(=O)O)cc1` it was inactive: 4.68%; in that of `CP(=O)(Nc1ccc(Cl)cc1)Oc1ccc(F)cc1` (configuration not stated), inactive: -5.26%. To `O=C(OCCCN1CCCC1)C(O)(c1ccccc1)C1CCCCC1` (configuration not stated) belongs inactive: 30.7%; to `COc1ccccc1OP(C)(=O)Nc1c(C)n(C)n(-c2ccccc2)c1=O` (configuration not stated), inactive: -4.6%; to `CCc1ccc(OP(C)(=O)Nc2cccnc2)cc1` (configuration not stated), inactive: -5.33%. In the case of `CP(=O)(Oc1ccccc1)N1CCOC1=O` (configuration not stated) it was inactive: 3.88%; in that of `COc1ccc(OP(C)(=O)Nc2ccc(Br)cc2)cc1` (configuration not stated), inactive: -3.15%; in that of `COc1ccccc1OP(C)(=O)Nc1ccc(C)cc1C` (configuration not stated), inactive: 15.7%. With `CP(=O)(Nc1ccccn1)Oc1ccccc1` (configuration not stated), the inhibition is inactive: -0.31%.

For the molecule `CCc1ccc(OP(C)(=O)O)cc1`, the inhibition was inactive: 6.64%.

Take `Cc1c(NP(C)(=O)Oc2ccc(C(C)C)cc2)c(=O)n(-c2ccccc2)n1C` (configuration not stated): the inhibition is inactive: 1.91%. In the case of `O=[N+]([O-])c1cc([N+](=O)[O-])c(Nc2ccccn2)c([N+](=O)[O-])c1` it was inactive: -6.23%. Consider `COc1ccc(OP(C)(=O)Nc2ccccn2)cc1` (configuration not stated), for which the inhibition is inactive: -6.23%. To `CN(C)CCOC(=O)C(O)(c1ccccc1)C1CCCC1` (configuration not stated) belongs inactive: 6.43%. In the case of `COc1ccccc1OP(C)(=O)Nc1ccc(Br)cc1` (configuration not stated) it was inactive: -6.5%; in that of `CCCCCCCCCCCCCCCC1C[N+](C)(C)CCOP(C)(=O)O1` (configuration not stated), inactive: 3.91%; in that of `CP(=O)(Nc1ccc(Cl)cc1Cl)Oc1ccccc1` (configuration not stated), inactive: 5.36%. To `CP(=O)(OCCOc1ccccc1)OCCOc1ccccc1` belongs inactive: -1.09%; to `Cc1nc2ccc3ccccc3c2o1.O=[N+]([O-])c1cc([N+](=O)[O-])c(O)c([N+](=O)[O-])c1`, inactive: 14%; to `COc1ccccc1OP(C)(=O)Nc1ccc(C)c(C)c1` (configuration not stated), inactive: 6.36%. As for `Cc1cc(C)cc(OP(C)(=O)Nc2cccc(C(F)(F)F)c2)c1` (configuration not stated), the inhibition was inactive: 6.2%.

Take `O=C1C(O)=C([N+](=O)[O-])C(=O)C(O)=C1[N+](=O)[O-]`: the inhibition is inactive: -0.02%. `CP(=O)(Nc1ccccc1)Oc1ccc(F)cc1` (configuration not stated): the inhibition was inactive: 12.8%.

On to `Cc1c([N+](=O)[O-])cc([N+](=O)[O-])c(Br)c1[N+](=O)[O-]`, for which the inhibition was inactive: 6.03%.

Turning to `CCN(CC)CCCOC(=O)C(O)(c1ccccc1)C1CCCCC1` (configuration not stated), the inhibition was inactive: 2.98%.

For `CCOC(=O)c1ccc(NP(C)(=O)Oc2ccc(F)cc2)cc1` (configuration not stated), the inhibition was inactive: 0.71%. To `O=C(OC1CN2CCC1CC2)c1ccc([N+](=O)[O-])cc1` (configuration not stated) belongs inactive: 4.46%; to `O=C(OCCN1CCN(CCOCc2ccccc2)CC1)C(O)(c1ccccc1)c1ccccc1`, inactive: 2.65%. In the case of `CP(=O)(Nc1ccccc1F)Oc1ccccc1` (configuration not stated) it was inactive: -1.28%; in that of `CC(C)c1ccc(OP(C)(=O)Nc2ccc(SC(F)(F)F)cc2)cc1` (configuration not stated), inactive: -1.4%; in that of `O=[N+]([O-])c1cc([N+](=O)[O-])c(Nc2ccc(Cl)cc2)c([N+](=O)[O-])c1`, inactive: 3.11%. To `Cc1ccccc1NP(C)(=O)Nc1ccccc1C` belongs inactive: 4.12%; to `CCOP(C)(=S)SCC(=O)NC(C)(CC)C(=O)O` (configuration not stated), inactive: -2.27%.

Take `CP(=O)(Nc1ccc(SC(F)(F)F)cc1)Oc1ccc(F)cc1` (configuration not stated): the inhibition is inactive: -1.94%. To `O=[N+]([O-])c1ccc(OP2(=O)COCCO2)cc1` (configuration not stated) belongs inactive: -14.3%; to `O=[N+]([O-])c1cc([N+](=O)[O-])c(NCC2CCS(=O)(=O)C2)c([N+](=O)[O-])c1` (configuration not stated), inactive: 3.25%. For `CN(C)CCOC(=O)C(O)(c1ccccc1)C1CCCCC1` (configuration not stated), the inhibition was inactive: -3.22%.

In the case of `COc1ccc(NP(C)(=O)Oc2ccccc2OC)cc1` (configuration not stated), the inhibition was inactive: 5.72%. To `COc1ccc(OP(C)(=O)Nc2cccc(Br)c2)cc1` (configuration not stated) belongs inactive: 28%; to `CP(=O)(Nc1ccc(SC(F)(F)F)cc1)Oc1ccccc1` (configuration not stated), inactive: 16.4%; to `CN1CCCCC1COC(=O)C1(O)c2ccccc2CCc2ccccc21` (configuration not stated), inactive: -2.02%. With `COc1ccccc1OP(C)(=O)Nc1c(C)cccc1C` (configuration not stated), the inhibition is inactive: -0.17%. As for `CCOC(=O)C(CC)C1=NC(C)(C)Cc2ccccc21.O=[N+]([O-])c1cc([N+](=O)[O-])c(O)c([N+](=O)[O-])c1` (configuration not stated), the inhibition was inactive: -2.69%. As to `Cc1nc2ccc3ccccc3c2s1.O=[N+]([O-])c1cc([N+](=O)[O-])c(O)c([N+](=O)[O-])c1`, the inhibition is inactive: -0.25%.

In the case of `O=[N+]([O-])c1cc([N+](=O)[O-])c(-n2nnc3ccccc32)c([N+](=O)[O-])c1`, the inhibition is inactive: 23%. To `Cc1ccc(C)c(NP(C)(=O)Oc2ccccc2)c1` (configuration not stated) belongs inactive: 1.56%. To `Cc1cc(C)cc(OP(C)(=O)Nc2ccccn2)c1` (configuration not stated) belongs inactive: -3.16%; to `CP(=O)(Nc1cccc(Br)c1)Oc1ccccc1` (configuration not stated), inactive: -8.56%.

Consider `Cc1cc(C)cc(OP(C)(=O)Nc2ccc(C)cc2C)c1` (configuration not stated), for which the inhibition was inactive: 4.08%. To `COc1ccccc1OP(C)(=O)Nc1cccc(Br)c1` (configuration not stated) belongs inactive: -0.82%; to `CC1=NCCc2c1[nH]c1ccccc21.O=[N+]([O-])c1cc([N+](=O)[O-])c(O)c([N+](=O)[O-])c1`, inactive: 9.98%. In the case of `Cc1cc(C)cc(OP(C)(N)=O)c1` (configuration not stated) it was inactive: 10.8%. To `COc1ccc(OP(C)(=O)Nc2cccc(F)c2)cc1` (configuration not stated) belongs inactive: -2.97%; to `COc1ccccc1OP(C)(=O)Nc1cc(Cl)ccc1C` (configuration not stated), inactive: 5.1%; to `Cc1ccc(NP(C)(=O)Oc2ccccc2)c(C)c1` (configuration not stated), inactive: 0.68%. For the molecule `CCOC(=O)c1ccc(NP(C)(=O)Oc2ccccc2)cc1` (configuration not stated), the inhibition is inactive: -8.7%. To `O=[N+]([O-])c1ccc2c(c1)C=Nc1ccccc1O2` belongs inactive: -2.17%; to `Cc1cccc(C)c1OP(C)(N)=O` (configuration not stated), inactive: -0.34%. In the case of `CC(C)(C)c1ccc(OP(C)(=O)Nc2ccc(SC(F)(F)F)cc2)cc1` (configuration not stated) it was inactive: -3.17%. For `CCN(CC)CCCOC(=O)C(O)(c1ccccc1)c1ccccc1`, the inhibition is inactive: 8.64%. To `CP(=O)(Nc1ccccn1)Oc1ccc(Cl)cc1` (configuration not stated) belongs inactive: 4.4%.

`CCOP(C)(=S)SCC(=O)NC(C)C(=O)O` (configuration not stated): the inhibition is inactive: 3.47%. To `CP(=O)(NC(=O)Nc1ccccc1)Oc1ccccc1` (configuration not stated) belongs inactive: 4.86%; to `CP(=O)(Oc1ccccc1)OC(c1ccccc1)C(F)(F)F` (configuration not stated), inactive: -1.89%. In the case of `CP(=O)(Nc1ccc(SC(F)(F)F)cc1)Oc1ccc(Cl)cc1` (configuration not stated) it was inactive: 12%; in that of `Cc1ccc(Nc2c([N+](=O)[O-])cc([N+](=O)[O-])cc2[N+](=O)[O-])cc1`, inactive: -4.75%; in that of `COc1ccccc1OP(C)(=O)Nc1ccccc1` (configuration not stated), inactive: 2.64%. In the case of `CP(=S)(Nn1cnnc1)Oc1ccccc1` (configuration not stated) it was inactive: 1.21%.
